Data: paper PMC10304930 (Molecules, 2023)

Tests used:
[1] = target: the molecule itself; assay: SEC; […]; 40 mM Tris-HCl, 100 mM NaCl, 1 mM DTT, pH 8.0; 0.5 mL/min; […]
[2] = target: the molecule itself; assay: cell-based or functional assay

B1: tagged main protease from SARS-CoV-2 with N-terminal Met-Ala-Ser and C-terminal Leu-Glu-6×His (enzyme)
chain: not shown
stoichiometry N [1]: 2
kcat/Km, FRET-based cleavage assay (Dabcyl/Edans peptide substrate) [2]: 67.5 M⁻¹ s⁻¹
